Reference: ChEMBL document CHEMBL3244115 (1979)
Active and inactive are the calls of the source. The rule behind the calls is not given here.

How the values were obtained:
B16 [1] = assay: Antitumor activity against mouse B16 cells allografted in BDF mouse assessed as increase in life span at 200 mg/kg, ip administered for 9 days relative to untreated control
B16 [2] = assay: Antitumor activity against mouse B16 cells allografted in ip dosed BDF mouse assessed as increase in life span administered for 9 days
B16 [3] = assay: Antitumor activity against mouse B16 cells allografted in BDF mouse assessed as increase in life span at 12.5 mg/kg, ip administered for 9 days relative to untreated control
B16 [4] = assay: Antitumor activity against mouse B16 cells allografted in BDF mouse assessed as increase in life span at 50 mg/kg, ip administered for 9 days relative to untreated control
B16 [5] = assay: Antitumor activity against mouse B16 cells allografted in BDF mouse assessed as increase in life span at 1 mg/kg, ip administered for 9 days relative to untreated control
B16 [6] = assay: Antitumor activity against mouse B16 cells allografted in BDF mouse assessed as increase in life span at 8 mg/kg, ip administered for 9 days relative to untreated control; format: functional
B16 [7] = assay: Antitumor activity against mouse B16 cells allografted in BDF mouse assessed as increase in life span at 2 mg/kg, ip administered for 9 days relative to untreated control

## ClCCN(CCCl)c1ccc(Oc2ccccc2)cc1
B16 [1]
  T/C: 139%

## N#CC(C#N)=Cc1ccc(N(CCCl)CCCl)cc1
B16 [1]
  T/C: 108%

## NS(=O)(=O)c1ccc(N(CCCl)CCCl)cc1
B16 [2]
  Activity: inactive

## NC(=O)Nc1ccc(N(CCCl)CCCl)cc1
B16 [3]
  T/C: 147%

## Cc1ccc(N(CCCl)CCCl)cc1C
B16 [4]
  T/C: 167%

## Nc1ccc(N(CCCl)CCCl)cc1
B16 [5]
  T/C: 124%

## Oc1ccc(N(CCCl)CCCl)cc1
B16 [6]
  T/C: 147%

## Cc1cc(N(CCCl)CCCl)ccc1N
B16 [7]
  T/C: 142%
